Pooled drug test results. Numbers come from NIAID ChemDB, via PubChem.

All rows: tests in culture; species: HIV-1

Conditions beyond the fields shown may differ between rows. An empty or dashed field is not shown. ECn: concentration that inhibits the pathogen or its effect by n%.

smiles | endpoint | method | cell line | strain or isolate | mutations | result
O=C(NCc1c(F)cc(F)cc1F)c1cn2c(c(O)c1=O)C(=O)N1[C@H]3CC[C@H](C3)O[C@@H]1C2 | EC50 | luciferase | HOS |  | AGT (GGGAGT) | <0.001 µM
CCCN(CCC)CCCCN(C)C(=O)c1ccc(CN(Cc2ncc[nH]2)Cc2ncn[nH]2)cc1 | EC50 | MTT | MT-4 | IIIB |  | 0.002 µM
Cc1cn([C@H]2C[C@H](N=[N+]=[N-])[C@@H](COP(=O)(N[C@@H](C)C(=O)OCc3ccccc3)OCC(Cl)(Cl)Cl)O2)c(=O)[nH]c1=O | EC50 | ELISA | C8166 | RF |  | 0.03 µM
CCc1c(Cc2cccc3ccccc23)nc(SCC(=O)c2ccc(C)cc2)[nH]c1=O | EC50 | cytopathic effect | MT-4 | SO561945 | RT-K103N Y181C | ≥5.62 µM
O=c1[nH]c(=S)[nH]c2c1C(c1ccc([N+](=O)[O-])cc1)c1c(nc(=S)[nH]c1Cl)O2 | EC50 | p24 | MT-4 |  |  | <5 µg/mL
COc1ncn(-c2ncc(OC)c3c(C(=O)C(=O)N4CCn5c(nnc5-c5ccccc5)C4)c[nH]c23)n1 | EC50 | luciferase / single cycle | HeLa CD4 |  | nef | <0.5 µM
Nc1[nH]c(=S)nc2c1C(c1ccc([N+](=O)[O-])cc1)c1c(nc(=S)[nH]c1N)O2 | EC50 | p24 | MT-4 |  |  | <5 µg/mL
CC(C)C1=C2[C@H]3CC[C@@H]4[C@@]5(C)CC[C@H](OC(=O)[C@H]6C[C@@H](C(=O)O)C6(C)C)C(C)(C)[C@@H]5CC[C@@]4(C)[C@]3(C)CC[C@@]2(CCNCc2ccc3nc(-c4ccccc4)[nH]c3c2)CC1=O | EC50 | p24 / ELISA | MT-2 | 92HT599 |  | <1 µM
N#Cc1ccc(Cn2cc(Cc3ccccc3F)cc(/C(O)=C/C(=O)C(=O)O)c2=O)cc1 | EC50 |  | MAGI |  |  | 1.1 µM
Nc1ccn([C@H]2C=C(F)[C@@H](CO)O2)c(=O)n1 | EC50 |  | PBMC |  |  | 0.94 µM
Cc1nc(C)c([C@H](OC(C)(C)C)C(=O)O)c(N2CCC(C)(C)CC2)c1-c1ccc2c(c1)CCN(Cc1cccc(C(F)(F)F)c1F)C2 | EC50 | luciferase | MT-2 | NL4-3 |  | ≤0.1 µM
CCCCCCOC(=O)[C@H](C)NP(=O)(OC[C@H]1O[C@@H](n2cc(C)c(=O)[nH]c2=O)C[C@@H]1N=[N+]=[N-])OCC(Cl)(Cl)Cl | EC50 | ELISA | C8166 | RF |  | 0.5 µM
CC(C)CN(CC(O)CNC1c2ccccc2CC1O)S(=O)(=O)c1ccccc1 | EC50 | p24 | CEM | IIIB |  | <1 µM
CCCCCCCCCCCCCCCC(=O)NCC1OC(n2cnc3c(N)ncnc32)C(OP(=O)(O)OCC2OC(n3cnc4c(N)ncnc43)C(OP(=O)(O)OCCOCn3cnc4c(N)ncnc43)C2O)C1O | EC50 | syncytia | SupT1 + Sup-T1 | IIIB |  | <100 µM
COc1ccc(S(=O)(=O)N(CC(O)CN2CC(c3ccccc3)c3ccccc3C2=O)CC2CCCC2)cc1 | EC50 | p24 | CEM | IIIB |  | <1 µM
COC(=O)c1cc2ccc(N(C)C)cc2[nH]1 | EC50 | p24 |  |  |  | 0.65 µg/mL
COc1ccc(C(=O)CSc2nc(Cc3cccc4ccccc34)c(C)c(=O)[nH]2)cc1 | EC50 | cytopathic effect | MT-4 | SO561945 | RT-K103N Y181C | ≥290 µM
CC(C)C1=C2[C@H]3CC[C@@H]4[C@@]5(C)CC[C@H](OC(=O)[C@H]6C[C@@H](C(=O)O)C6(C)C)C(C)(C)[C@@H]5CC[C@@]4(C)[C@]3(C)CC[C@@]2([C@@H](O)CNCC(C)(C)NC(=O)C2CCNCC2)CC1=O | EC50 | p24 / ELISA | MT-2 | 92HT599 |  | <1 µM
COC(=O)c1cc2c(OC)cc(C(N)=O)cc2[nH]1 | EC50 | p24 |  |  |  | 0.32 µg/mL
CC(C)CN(CC(O)C(=O)N1CSC[C@H]1C(=O)NC(C)(C)C)S(=O)(=O)c1ccccc1 | EC50 | p24 | CEM | IIIB |  | <1 µM
O=C(OCCOCCOCCNC(=O)c1cc(C(=O)c2ccc3ccccc3c2)n2ccc(C(=O)c3ccccc3)cc12)c1ccccc1 | EC50 | p24 | H9 |  |  | 56.5 µM
CCO/C(CC(=O)NCc1ccc(OC)cc1)=N\Nc1ccccc1[N+](=O)[O-] | EC50 | MTT | MT-4 | IIIB |  | >30.68 µM
Nc1ccn([C@H]2C=C[C@@H](CO)O2)c(=O)n1 | EC50 |  | PBMC |  |  | 0.005 µM
CC1(C)C2CC[C@@]3(C)C4CC[C@@]5(C)CC[C@](C)(C(=O)O)C[C@H]5C4=CC(=O)C3[C@@]2(C)CC[C@@H]1O[C@@H]1O[C@H](C(=O)O)[C@@H](O[C@@H]2O[C@H](C(=O)O)[C@@H](O)[C@H](O)[C@H]2O)[C@H](O)[C@H]1O | EC50 | p24 | MT-4 | EVK |  | 125 µg/mL
COc1ccc(S(=O)(=O)N(CC[C@@H](O)CN2CCCC[C@H]2C(=O)NC(C)(C)C)CC(C)C)cc1 | EC90 | p24 | CEM | IIIB |  | 1 µM
CCOC(=O)c1cc(C(=O)c2ccc3ccccc3c2)n2ccc(C(=O)c3ccncc3)cc12 | EC50 | p24 | H9 |  |  | 11 µM
Nc1ccn([C@@H]2C=C(F)[C@H](CO)O2)c(=O)n1 | EC50 |  | PBMC |  |  | 0.03 µM
[N-]=[N+]=NCCOCCOCCOc1cc(C2(C(F)(F)F)N=N2)ccc1C(=O)NCCOCCOCCNC(=O)c1cc(C(=O)c2ccc3ccccc3c2)n2ccc(C(=O)c3ccccc3)cc12 | EC50 | p24 | H9 |  |  | 27.4 µM
[2H]C(CCCN)(CNC[C@H](O)[C@@]12CC[C@]3(C)[C@H](CC[C@@H]4[C@@]5(C)CC[C@H](OC(=O)[C@H]6C[C@@H](C(=O)O)C6(C)C)C(C)(C)[C@@H]5CC[C@]43C)C1=C(C(C)C)C(=O)C2)NC(=O)c1ccc(Cl)cc1 | EC50 | p24 / ELISA | MT-2 | 92HT599 |  | <1 µM
COc1cc(C)c(CN2CCc3cc(-c4c(C)nc(C)c([C@H](OC(C)(C)C)C(=O)O)c4N4CCC(C)(C)CC4)ccc3C2)c(F)c1 | EC50 | luciferase | MT-2 | NL4-3 |  | ≤0.1 µM
Nc1cc(S(=O)(=O)O)c2ccccc2c1N | EC50 | p24 | H9 |  |  | >1 µg/mL
COc1cc2c(cc1Cc1cccc(Cl)c1F)c(=O)c(C(=O)O)cn2[C@H](CO)C(C)C | EC50 | luciferase | HOS |  | AGT (GGGAGT) | <0.001 µM
Cc1ccc(C(C)(C)C)cc1CN1CCc2cc(-c3c(C)nc(C)c([C@H](OC(C)(C)C)C(=O)O)c3N3CCC(C)(C)CC3)ccc2C1 | EC50 | luciferase | MT-2 | NL4-3 |  | ≤0.1 µM
COc1ccc(S(=O)(=O)N(Cc2ccccc2)CC(F)(F)C(=O)[C@@H](Cc2ccccc2)NC(=O)OCc2ccccc2)cc1 | EC50 | p24 | CEM | IIIB |  | <1 µM
O=C(O)C(=O)/C=C(\O)c1cc(Cc2ccc(F)c(Cl)c2)cn(Cc2ccc(F)c(Cl)c2)c1=O | EC50 |  | MAGI |  |  | 2.4 µM
NC1=NC2C(N=CN2[C@H]2C[C@@H](CCP(=O)(O)O)CO2)C(=O)N1 | EC50 | MTT | MT-4 |  |  | 60.2 µg/mL
COC(=O)CNC(=O)CNC(=O)CNC(=O)CNC(=O)c1cc(C(=O)c2ccc3ccccc3c2)n2ccc(C(=O)c3ccccc3)cc12 | EC50 | p24 | H9 |  |  | 40.7 µM
Cc1c(Cc2cccc3ccccc23)nc(SCC(=O)c2ccc(Cl)cc2)[nH]c1=O | EC50 | cytopathic effect | MT-4 | SO561945 | RT-K103N Y181C | ≥198 µM
COc1ccc(/C=C/C(=O)O[C@@H]2[C@@H](OC(=O)/C=C/c3ccc(OC)cc3)[C@H](O[C@H]3[C@H](OC(=O)/C=C/c4ccc(OC)cc4)[C@@H](OC(=O)/C=C/c4ccc(OC)cc4)[C@H](O[C@H]4CC[C@@]5(C)C(CC[C@]6(C)C5C(=O)C=C5C7C[C@@](C)(C(=O)O)CC[C@]7(C)CC[C@]56C)C4(C)C)O[C@@H]3C(=O)O)O[C@H](C(=O)O)[C@H]2OC(=O)/C=C/c2ccc(OC)cc2)cc1 | EC90 | p24 | MT-4 | EVK |  | >1000 µg/mL
C[C@@H]1CCO[C@H]2Cn3cc(C(=O)NCc4ccc(F)cc4F)c(=O)c(O)c3C(=O)N12 | EC50 | luciferase | HOS |  | +G insertion (GGGGAGT) | <0.001 µM
Cc1ccc(C(C)N2CCc3cc(-c4c(C)nc(C)c([C@H](OC(C)(C)C)C(=O)O)c4N4CCC(C)(C)CC4)ccc3C2)cc1F | EC50 | luciferase | MT-2 | NL4-3 |  | ≤0.1 µM
Nc1ncnc2c1ncn2[C@H]1C=C[C@@H](CO)[C@@H]1CO | EC50 | XTT | MT-4 | IIIB |  | 0.2 µg/mL
COC(=O)[C@H](C)NP(=O)(OC[C@H]1O[C@@H](n2cc(C)c(=O)[nH]c2=O)C[C@@H]1N=[N+]=[N-])OCC(Cl)(Cl)Cl | EC50 | ELISA | C8166 | RF |  | 0.1 µM
CC(C)(C)OC(=O)N[C@@H](Cc1ccccc1)C(=O)N1CCC(=O)[C@@H]1Sc1ccccc1 | EC50 | syncytia | MT-4 |  |  | 50 µM
COC1=C(C2=C(Cl)C(=O)c3ccccc3C2=O)C(=O)c2ccc3c(c2C1=O)C=C[C@@](C)(CCC=C(C)C)O3 | EC50 | cytopathic effect / MTT | CEM | IIIB |  | 2.3 µM
Cc1cc(F)ccc1Cc1cc(/C(O)=C/C(=O)C(=O)O)c(=O)n(Cc2ccccc2)c1 | EC50 |  | MAGI |  |  | 1.3 µM
COC(=O)c1cc2ccc(N)cc2[nH]1 | EC50 | p24 |  |  |  | 0.2 µg/mL
CCCCCCCCCCCCCC(=O)OCC/C(SS/C(CCOC(=O)CCCCCCCCCCCCC)=C(\C)N(C=O)Cc1cnc(C)nc1N)=C(/C)N(C=O)Cc1cnc(C)nc1N | EC50 | p24 | PBMC(CXCR4 CCR5) + PBMC | MN(SI/TT) |  | <12.5 µM
O=C(Nc1cscc1S(=O)(=O)c1ccccc1)C(=O)C(=O)N(CC1CCCC1)S(=O)(=O)c1ccccc1 | EC50 | p24 | CEM | IIIB |  | <1 µM
Nc1ccn([C@@H]2S[C@H](CO)C=C2F)c(=O)n1 | EC50 |  | PBMC |  |  | 0.37 µM
Cc1ccc(C(C)N2CCc3cc(-c4c(C)nc(C)c([C@H](OC(C)(C)C)C(=O)O)c4N4CCC(C)(C)CC4)ccc3C2)cc1C | EC50 | luciferase | MT-2 | NL4-3 |  | ≤0.1 µM
CC(C)C1=C2[C@H]3CC[C@@H]4[C@@]5(C)CC[C@H](OC(=O)[C@H]6C[C@@H](C(=O)O)C6(C)C)C(C)(C)[C@@H]5CC[C@@]4(C)[C@]3(C)CC[C@@]2([C@@H](O)CNC(=O)C(C)(C)NC(=O)c2ccc(C(F)(F)F)cc2)CC1=O | EC50 | p24 / ELISA | MT-2 | 92HT599 |  | <1 µM
NCC1OC(n2cnc3c(N)ncnc32)C(OP(=O)(O)OCC2OC(n3cnc4c(N)ncnc43)C(OP(=O)(O)OCC3OC(n4cnc5c(N)ncnc54)C(O)C3O)C2O)C1O | EC50 | syncytia | SupT1 + Sup-T1 | IIIB |  | >100 µM
CC(C)C1=C2[C@H]3CC[C@@H]4[C@@]5(C)CC[C@H](OC(=O)[C@H]6C[C@@H](C(=O)O)C6(C)C)C(C)(C)[C@@H]5CC[C@@]4(C)[C@]3(C)CC[C@@]2(CCNCc2ncccn2)CC1=O | EC50 | p24 / ELISA | MT-2 | 92HT599 |  | <1 µM
Nc1c(C(=O)NCc2ccc(F)cc2F)c(=O)n(O)c2ncc(CCCCCO)cc12 | EC50 | luciferase | HOS |  | +G insertion (GGGGAGT) | 0.0028 µM
O=C(O)C(=O)/C=C(\O)c1cc(Cc2ccccc2F)cn(Cc2cccc(F)c2F)c1=O | EC50 |  | MAGI |  |  | 0.8 µM
COc1ccc(C[C@H](NC(=O)OC(C)(C)C)C(=O)N2CCC(=O)[C@H]2Sc2ccccc2)cc1 | EC50 | syncytia | MT-4 |  |  | >50 µM
Cc1nc(C)c([C@H](OC(C)(C)C)C(=O)O)c(N2CCC(C)(C)CC2)c1-c1ccc2c(c1)CCN(C(C)c1cccc(C(F)(F)F)c1)C2 | EC50 | luciferase | MT-2 | NL4-3 |  | ≤0.1 µM
COC(=O)c1cc(=O)c2c(OC)cc(N)cc2[nH]1 | EC50 | p24 |  |  |  | 0.09 µg/mL
CC(C)(C)OC(=O)N[C@@H](Cc1ccc(OCc2ccccc2)cc1)C(=O)N1CCC(=O)[C@@H]1Sc1ccccc1 | EC50 | syncytia | MT-4 |  |  | >10 µM

The first 8 rows once more:

smiles	endpoint	method	cell line	strain or isolate	mutations	result
O=C(NCc1c(F)cc(F)cc1F)c1cn2c(c(O)c1=O)C(=O)N1[C@H]3CC[C@H](C3)O[C@@H]1C2	EC50	luciferase	HOS		AGT (GGGAGT)	<0.001 µM
CCCN(CCC)CCCCN(C)C(=O)c1ccc(CN(Cc2ncc[nH]2)Cc2ncn[nH]2)cc1	EC50	MTT	MT-4	IIIB		0.002 µM
Cc1cn([C@H]2C[C@H](N=[N+]=[N-])[C@@H](COP(=O)(N[C@@H](C)C(=O)OCc3ccccc3)OCC(Cl)(Cl)Cl)O2)c(=O)[nH]c1=O	EC50	ELISA	C8166	RF		0.03 µM
CCc1c(Cc2cccc3ccccc23)nc(SCC(=O)c2ccc(C)cc2)[nH]c1=O	EC50	cytopathic effect	MT-4	SO561945	RT-K103N Y181C	≥5.62 µM
O=c1[nH]c(=S)[nH]c2c1C(c1ccc([N+](=O)[O-])cc1)c1c(nc(=S)[nH]c1Cl)O2	EC50	p24	MT-4			<5 µg/mL
COc1ncn(-c2ncc(OC)c3c(C(=O)C(=O)N4CCn5c(nnc5-c5ccccc5)C4)c[nH]c23)n1	EC50	luciferase / single cycle	HeLa CD4		nef	<0.5 µM
Nc1[nH]c(=S)nc2c1C(c1ccc([N+](=O)[O-])cc1)c1c(nc(=S)[nH]c1N)O2	EC50	p24	MT-4			<5 µg/mL
CC(C)C1=C2[C@H]3CC[C@@H]4[C@@]5(C)CC[C@H](OC(=O)[C@H]6C[C@@H](C(=O)O)C6(C)C)C(C)(C)[C@@H]5CC[C@@]4(C)[C@]3(C)CC[C@@]2(CCNCc2ccc3nc(-c4ccccc4)[nH]c3c2)CC1=O	EC50	p24 / ELISA	MT-2	92HT599		<1 µM